{"source": "ChEMBL document CHEMBL2021919", "about": "“Computational analysis of structure-based interactions and ligand properties can predict efflux effects on antibiotics” (2012)", "tested_on": "Salmonella typhimurium", "test": "Ratio of MIC for wild type Salmonella typhimurium SH5014 to MIC for Salmonella typhimurium SH7616 harboring missense mutation in acrA/acrB gene by two-fold serial dilution method", "type": "functional, Salmonella enterica subsp. enterica serovar Typhimurium", "data": [{"smiles": "CC(=O)OCC1=C(C(=O)O)N2C(=O)[C@@H](NC(=O)Cc3cccs3)[C@H]2SC1", "note": "[CEPHALOTHIN]", "values": [{"measurement": "Ratio", "value": 4}]}]}
